According to patent US7635567B2, “Method for determination of the responsiveness of an individual to mistletoe lectin” (dated 2009):

Biological target: rViscumin (Viscum album, UniProt P81446, E393Q/H331R/I468S/Q471K)
Conditions: rViscumin 1 μg/ml, 1 hour; detected with mAb TA5

For Galβ1-4Glcβ1-1Cer, the “rViscumin (binding to the glycosphingolipid, TLC overlay)” value was “very weak binding”.
